Results of unrelated studies side by side (data: NIAID ChemDB).

All rows: whole-cell or culture tests; agent: Mycobacterium tuberculosis

ECn is the concentration giving n% inhibition of infection, replication or growth.

SMILES	strain	cell line	method	tested at	read-out	value
Nc1ccc2c(-c3ccccc3)cc(N3CCCCC3)nc2n1	H37Rv				MIC	>6.25 µg/mL
O=C1C(=O)N(CCCCN2CCN(c3ccnc4cc(Cl)ccc34)CC2)c2ccccc21	MC2 6230				MIC99	55.8 µM
C[C@H](N)C(=O)N[C@@H]1[C@H]2C(=C(O)C[C@@H](O)[C@@H]2O)C(=O)O[C@]1(C)C(Cl)Cl	H37Rv	VERO			MIC	1.6 µg/mL
N/C(=N\N=C\c1cc2ccccc2o1)c1cnccn1					MIC	>16 µg/mL
CCC(C)OC(=O)N1CCN(c2nc3nc(N4CCOCC4)ccc3cc2-c2ccccc2)CC1	H37Rv			6.25 µg/mL	inhibition	64%
Cc1c(N2CCN(C(=O)C3COc4ccccc4O3)CC2)c([N+](=O)[O-])cc2c(=O)c(C(=O)O)cn(C(C)(C)C)c12	H37Rv				MIC	>22.7 µM
C/C(=N\NC(=O)c1cc(C)nc2ccc(Br)cc12)c1ccccc1O	H37Rv		BACTEC		MIC bound	>12.5 µg/mL
O=C1C(=O)N(CCCCCCCN2CCN(c3ccnc4cc(Cl)ccc34)CC2)c2ccccc21	MC2 6230				MIC99	55.8 µM
COc1cc(Cc2cnc(/N=C3\C(=O)N(CN(C)C)c4ccc(F)cc43)nc2N)cc(OC)c1OC	H37Rv			6.25 µg/mL	inhibition	19%
CCc1ccnc2c([N+](=O)[O-])cc(C(C)=O)c(OC(C)C)c12	H37Rv				MIC	6.25 µg/mL
O=C(O)C(=O)O.OC(CNCCc1ccccc1)CN1c2ccccc2Sc2ccccc21	STB-9102		resazurin		MIC	4 µg/mL
Cc1nc2ccc(Cl)cc2c(=S)n1-c1ccc(C(C)C)cc1	My 331/88				MIC	31 µg/mL
COc1nc(OC)n(C)c(=O)c1OP(=O)(OC)OC	H37Rv		resazurin	6.25 µg/mL	inhibition	44%
O=C1C(=O)N(CC#CCN2CCN(c3ccnc4cc(Cl)ccc34)CC2)c2ccc(F)cc21	MC2 6230				MIC99	>216 µM
O=C(Nc1ccc(Cl)cc1)Nc1nnc2nc(C(C(=O)c3ccsc3)c3nc4nnc(NC(=O)Nc5ccc(Cl)cc5)n4[nH]c3=O)c(=O)[nH]n12	H37Rv		BACTEC		MIC bound	>12.5 µg/mL
COc1c(C(C)=O)cc(N)c2nc(C(C)C)ccc12	H37Rv			6.25 µg/mL	inhibition	0%
Cc1cccc(C)c1NC1=CC(=O)C(=O)c2ccccc21	H37Rv		resazurin		MIC	3.13 µg/mL
COc1ccc(CSc2cc(C(N)=S)ccn2)cc1	My 331/88				MIC	31 µM
CC(C(=O)O)c1ccc(O)c2ncccc12	H37Rv				MIC50	5–10 µg/mL
N/C(=N\N=C\c1ccccn1)c1cnccn1					MIC	>16 µg/mL
CCCCc1ccc(N2C(=S)c3cc(Cl)ccc3NC2(C)C)cc1	My 331/88				MIC	>62.5 µg/mL
Cn1cncc1C[C@H]1COC(=O)[C@@H]1[C@@H](O)c1ccccc1	H37Rv		BACTEC		MIC bound	>12.5 µg/mL
NC(=S)c1ccnc(SCc2ccccc2Cl)c1	My 331/88				MIC	31 µM
O=c1cc2oc3cc(O)c(O)cc3c(-c3ccccc3O)c-2cc1O	H37Rv		BACTEC		MIC bound	>12.5 µg/mL
O=C1C(=O)N(CCCCCCN2CCN(c3ccnc4cc(Cl)ccc34)CC2)c2ccc(Cl)cc21	MC2 6230				MIC99	19.56 µM
Cc1ccc2oc(/C=N/N=C(\N)c3cnccn3)nc2c1					MIC	>16 µg/mL
Cc1c(N2CCC3(CC2)OCCO3)c([N+](=O)[O-])cc2c(=O)c(C(=O)O)cn(C(C)(C)C)c12	H37Rv				MIC	14.03 µM
O=Cc1ccc2cccnc2c1O	M 607				MIC50	>25 µg/mL
Cc1ccc2nc(=O)c3cccnc3n2c1	H37Rv		resazurin		MIC bound	>6.25 µg/mL
COc1ccc2c(-c3ccccc3)cc(N3CCNCC3)nc2n1	H37Rv				MIC	>6.25 µg/mL
CN[C@@H]1[C@H](O)[C@H](NC)[C@H]2O[C@@]3(O)C(=O)C[C@@H](C)O[C@H]3O[C@@H]2[C@H]1O	H37Rv-HL-14		broth dilution		MIC	>200 µg/mL
CO[C@H]1/C=C/O[C@@]2(C)Oc3c(C)c(O)c4c(O)c(c(/C=N/N5CCN(C6CCCC6)CC5)c(O)c4c3C2=O)NC(=O)/C(C)=C\C=C\[C@H](C)[C@H](O)[C@@H](C)[C@@H](O)[C@@H](C)[C@H](OC(C)=O)[C@@H]1C	H37Rv				MIC	0.06 µg/mL
Cc1c(N2CCC3(CC2)OCCO3)c([N+](=O)[O-])cc2c(=O)c(C(=O)O)cn(C3CC3)c12	H37Rv				MIC	1.82 µM
COC(=O)/C1=C/c2c([nH]c3ccccc23)/C(C(=O)OC)=C\c2c1[nH]c1ccccc21	H37Rv		resazurin / absorbance		EC50	0.24 µM
Nc1nc2sc3ccccc3c(=O)n2n1	H37Rv		resazurin	6.25 µg/mL	inhibition	-19%
CN[C@@H]1[C@H](O)[C@H](NC)[C@H]2O[C@@]3(O)[C@H](NC(=O)c4ccc(F)cc4)C[C@@H](C)C[C@H]3O[C@@H]2[C@H]1O	H37Rv		broth dilution		MIC	50 µg/mL
CO[C@H]1/C=C/O[C@@]2(C)Oc3c(C)c(O)c4c(O)c(c5c(c4c3C2=O)NC2(CCN(CC(C)C)CC2)N=5)=NC(=O)/C(C)=C\C=C\[C@H](C)[C@H](O)[C@@H](C)[C@@H](O)[C@@H](C)[C@H](OC(C)=O)[C@@H]1C	12 (rifampicin-susceptible)				MIC	≤0.062 µg/mL
CCc1ccc(O)c2ncccc12	M 607				MIC50	5 µg/mL
Cc1noc(NS(=O)(=O)c2ccc(N=NC3SC(=S)NC3=O)cc2)c1C	H37Rv		BACTEC	12.5 µg/mL	inhibition	-1%
COC(=O)/C1=C/c2c([nH]c3ccc(F)cc23)/C(C(=O)OC)=C\c2c1[nH]c1ccc(F)cc21	H37Rv		resazurin / absorbance		EC50	1.68 µM
CCN1CCN(c2ccc3c(-c4ccccc4)cc(N4CCN(CC)CC4)nc3n2)CC1	H37Rv				MIC	>6.25 µg/mL
Cc1nn(C(=O)c2ccncc2)c(-c2ccccc2)c1N=Nc1nc2ccc([N+](=O)[O-])cc2s1	H37Rv		resazurin		MIC	1.56 µg/mL
CCc1nc2c(O)cccc2cc1C	M 607				MIC50	5–10 µg/mL
NNC(=O)c1ccncc1	MDR-843		resazurin		MIC	2 µg/mL
CCOC(=O)C(c1ccc2c(c1)OCO2)C1(NC(=O)c2ccccc2)C(=O)C(C(=O)OC)C(=O)C1C(=O)OC	H37Rv		BACTEC	12.5 µg/mL	inhibition	11%
COc1ccc2cc(-c3ccccc3)c(N3CCNCC3)nc2n1	H37Rv				MIC	>6.25 µg/mL
Nc1c(-c2nc3ccccc3s2)[n+]([O-])c2ccccc2[n+]1[O-]	H37Rv		BACTEC	12.5 µg/mL	inhibition	56%
COc1cc(Cc2cnc(/N=C3\C(=O)N(CN4CCN(c5ccccc5)CC4)c4ccc(F)cc43)nc2N)cc(OC)c1OC	H37Rv			6.25 µg/mL	inhibition	33%
CC1COc2c(N3CCN(C)CC3)c(F)cc3c(=O)c(C(=O)O)cn1c23	11 strains (drug-resistant)				MIC50	0.37 µg/mL
COC1/C=C\C=C(/C)C(=O)Nc2cc3nc4ccc(Br)cc4oc-3c(c2=O)CC(C)CC(OC)C(O)C(C)/C=C(\C)C1OC(N)=O	PAS-R				MIC	12.5 µg/mL
O=C(Nc1cccc2cccnc12)C(F)(F)F	H37Rv				MIC	>6.25 µg/mL
Clc1nc(Cl)nc(-c2cccn2-c2ccccc2)n1	H37Rv		BACTEC		MIC bound	>12.5 µg/mL
CCn1cc(C(=O)O)c(=O)c2cc(F)c(N3CCN(CN4C(=O)/C(=N\c5ncc(Cc6cc(OC)c(OC)c(OC)c6)c(N)n5)c5cc(F)ccc54)C(C)C3)c(F)c21	H37Rv			6.25 µg/mL	inhibition	100%
c1ccc(-c2cc3ccc(N4CCCCC4)nc3nc2N2CCNCC2)cc1	H37Rv			6.25 µg/mL	inhibition	88%
COc1cc(Cc2cnc(/N=C3\C(=O)N(CN4CCC(C)CC4)c4ccc(F)cc43)nc2N)cc(OC)c1OC	H37Rv				EC50	>6.25 µg/mL
CCCNC(=O)OCc1cnc2ccc(OC)cc2c1COC(=O)NCCC	H37Rv		BACTEC	12.5 µg/mL	inhibition	32%
NC(=S)c1ccnc(SCc2ccccc2F)c1	My 331/88				MIC	16 µM
COc1ccc2cc(-c3ccccc3)c(N3CCN(C(=O)OC(C)C)CC3)nc2n1	H37Rv			6.25 µg/mL	inhibition	43%
CC(=O)c1cc([N+](=O)[O-])c2ncccc2c1C1CCCCC1	H37Rv			6.25 µg/mL	inhibition	12%
CCn1cc(C(=O)O)c(=O)c2cc(F)c(N3CCN(CN4C(=O)/C(=N\c5ncc(Cc6cc(OC)c(OC)c(OC)c6)c(N)n5)c5cc(F)ccc54)CC3)cc21	H37Rv			6.25 µg/mL	inhibition	100%
CN[C@@H]1[C@H](O)[C@H](NC)[C@H]2O[C@@]3(O)[C@H](NC(=O)CC(C)C)C[C@@H](C)C[C@H]3O[C@@H]2[C@H]1O	H37Rv		broth dilution		MIC	200 µg/mL
N#Cc1ccnc(SCc2cccc(F)c2)c1	My 331/88				MIC	125 µM
N/C(=N\N=C\c1cc2ccccc2s1)c1cnccn1					MIC	>16 µg/mL
CO[C@H]1/C=C/O[C@@]2(C)Oc3c(C)c(O)c4c(O)c(c(/C=N/N5CCN(C)CC5)c(O)c4c3C2=O)NC(=O)/C(C)=C\C=C\[C@H](C)[C@H](O)[C@@H](C)[C@@H](O)[C@@H](C)[C@H](OC(C)=O)[C@@H]1C					MIC	0.007 µg/mL
O=C1C(=O)N(CC#CCN2CCN(c3ccnc4cc(Cl)ccc34)CC2)c2ccc(Cl)cc21	MC2 6230				MIC99	136 µM
N/C(=N\N=C\c1cc2ccccc2o1)c1ccccn1					MIC	>16 µg/mL
O=c1nc2c(c(-c3cccc(Cl)c3)[nH]1)COC/C2=C/c1cccc(Cl)c1	H37Rv		BACTEC	12.5 µg/mL	inhibition	0%
O=C1C(=O)N(CCCCCCN2CCN(c3ccnc4cc(Cl)ccc34)CC2)c2ccc(F)cc21	MC2 6230				MIC99	<10.12 µM
Cc1cc([N+](=O)[O-])c2ncccc2c1	M 607				MIC50	>25 µg/mL
COc1cc(Cc2cnc(/N=C3\C(=O)N(CN4CCCC4)c4ccc(F)cc43)nc2N)cc(OC)c1OC	H37Rv				EC50	>6.25 µg/mL
COc1ccc(-n2c(C)nc3ccc(Cl)cc3c2=S)cc1	My 331/88				MIC	>62.5 µg/mL
CC(C)(C)c1cc(C(C)(C)C)c2cccc([N+](=O)[O-])c2n1	H37Rv				MIC	>6.25 µg/mL
Cc1ccc2oc(/C=N/N=C(\N)c3ccccn3)nc2c1					MIC	>16 µg/mL
O=C1c2ccccc2C(=O)c2c(NCCCNCCO)ccc(NCCCNCCO)c21	H37Rv		BACTEC		MIC bound	>12.5 µg/mL
N/C(=N\N=C\c1cc2ccccc2s1)c1ccccn1					MIC	>16 µg/mL
CN[C@@H]1[C@H](O)[C@H](NC)[C@H]2O[C@@]3(O)[C@H](NC(=O)c4ccco4)C[C@@H](C)C[C@H]3O[C@@H]2[C@H]1O	H37Rv		broth dilution		MIC	100 µg/mL
CCOC(=O)c1cc(C2(O)CCN(CC(C)CC)C2=O)c(-c2cc(C)no2)[nH]1	H37Rv		resazurin		MIC bound	>6.25 µg/mL
COc1cc2c(cc1OC)CN(c1c([N+](=O)[O-])cc3c(=O)c(C(=O)O)cn(-c4ccc(F)cc4F)c3c1C)CC2	H37Rv				MIC	11.33 µM
Cc1ccc(S(=O)(=O)OC2CSS(=O)CC2OS(=O)(=O)c2ccc(C)cc2)cc1	H37Rv		BACTEC	12.5 µg/mL	inhibition	-1%
O=C1C(=O)N(CC#CCN2CCN(c3ccnc4cc(Cl)ccc34)CC2)c2ccccc21	MC2 6230				MIC99	>225 µM

The last 10 rows once more:

SMILES | strain | cell line | method | tested at | read-out | value
COc1ccc(-n2c(C)nc3ccc(Cl)cc3c2=S)cc1 | My 331/88 |  |  |  | MIC | >62.5 µg/mL
CC(C)(C)c1cc(C(C)(C)C)c2cccc([N+](=O)[O-])c2n1 | H37Rv |  |  |  | MIC | >6.25 µg/mL
Cc1ccc2oc(/C=N/N=C(\N)c3ccccn3)nc2c1 |  |  |  |  | MIC | >16 µg/mL
O=C1c2ccccc2C(=O)c2c(NCCCNCCO)ccc(NCCCNCCO)c21 | H37Rv |  | BACTEC |  | MIC bound | >12.5 µg/mL
N/C(=N\N=C\c1cc2ccccc2s1)c1ccccn1 |  |  |  |  | MIC | >16 µg/mL
CN[C@@H]1[C@H](O)[C@H](NC)[C@H]2O[C@@]3(O)[C@H](NC(=O)c4ccco4)C[C@@H](C)C[C@H]3O[C@@H]2[C@H]1O | H37Rv |  | broth dilution |  | MIC | 100 µg/mL
CCOC(=O)c1cc(C2(O)CCN(CC(C)CC)C2=O)c(-c2cc(C)no2)[nH]1 | H37Rv |  | resazurin |  | MIC bound | >6.25 µg/mL
COc1cc2c(cc1OC)CN(c1c([N+](=O)[O-])cc3c(=O)c(C(=O)O)cn(-c4ccc(F)cc4F)c3c1C)CC2 | H37Rv |  |  |  | MIC | 11.33 µM
Cc1ccc(S(=O)(=O)OC2CSS(=O)CC2OS(=O)(=O)c2ccc(C)cc2)cc1 | H37Rv |  | BACTEC | 12.5 µg/mL | inhibition | -1%
O=C1C(=O)N(CC#CCN2CCN(c3ccnc4cc(Cl)ccc34)CC2)c2ccccc21 | MC2 6230 |  |  |  | MIC99 | >225 µM

Conditions beyond the fields shown may differ between rows. MIC bound: limit read from a one-dose screen. A number after MIC or MFC names an inhibition level or a share of isolates. Two numbers with a dash give a range or band. Inhibition is in % at the dose shown (toxicity tests: loss of growth or viability). An empty or dashed field is not shown.